Anti-infective test results gathered from many reports (values: NIAID ChemDB through PubChem).

Shared fields: whole-cell or culture tests; species: HIV-1; cell line: MT-4; measure: EC50

ECn is the concentration giving n% inhibition of infection, replication or growth. An empty or dashed field is not shown. Lines come from different laboratories, so protocols vary.

compound | strain | mutations | method | conditions | value
Fc1cccc(F)c1[C@@H]1SCc2nc3ccccc3n21 | IIIB | - | cytopathic effect / MTT | - | 0.7 µg/mL
Cc1cn([C@H]2C[C@H](N=[N+]=[N-])[C@@H](CO)O2)c(=O)[nH]c1=O | IIIB | - | cytopathic effect / MTT | - | 0.003 µM
Nc1ccn([C@H]2CC[C@@H](CO)O2)c(=O)n1 | HXB2-D184+294 (RT M184V P294S) | RT-M184V P294S | RT activity | - | 2.6 µM
CC(C)=CCN1Cc2c(Cl)cccc2NC(=O)C1C | - | - | cytopathic effect / MTT | - | 4.3 µM
Cc1cn([C@H]2CC[C@@H](CO)O2)c(=O)[nH]c1=O | IIIB | - | p24 | - | 5.46 µM
Cc1cc(C#N)cc(C)c1Oc1nc(NC2CCN(Cc3cccc(C(N)=O)c3)CC2)nc2sccc12 | IIIB | NNRTI-resistant (RT K103N) | MTT | - | 0.00888 µM
CC(C)=CCN1Cc2cccc3[nH]c(=S)n(c23)C[C@@H]1C | A17 | RT-K103N Y181C | cytopathic effect / MTT | - | >100 µM
Cc1ccnc2c1NC(=O)c1cccnc1N2C1CC1 | IIIB | - | RT activity | - | 0.083 µg/mL
O=c1ccn([C@@H]2C[C@H](CO)CS2)c(=O)[nH]1 | - | - | cytopathic effect | - | >100 µM
O=C1N(Cc2ccc(CO)cc2)[C@H](Cc2ccccc2)[C@H](O)[C@@H](O)[C@@H](Cc2ccccc2)N1Cc1ccc(CO)cc1 | NL4-3 | PR-L63P V82T | p24 | - | <0.4 µM
COC(C(=O)O)c1c(C)nc2ccc(Br)cc2c1-c1ccc(Cl)cc1 | IIIB | - | MTT / absorbance | - | 5.8 µM
COc1c(O)c(I)c2c(c1OC)-c1c(c(I)c(O)c(OC)c1OC)C[C@H](C)[C@H](C)C2 | A17 | RT-K103N Y181C | cytopathic effect / MTT | - | 8.71 µM
CC(C)(C)NC(=O)[C@@H]1C[C@@H]2CCCC[C@@H]2CN1CC(O)[C@H](Cc1ccccc1)NC(=O)[C@H](CC(N)=O)NC(=O)c1ccc2ccccc2n1.CS(=O)(=O)O | NL4-3 | - | MTT / p24 | - | 0.0028 µM
COc1cncc(-c2cnc(C(C)(C)N3CCN(C[C@@H](O)C[C@@H](Cc4nnc(-c5ccccc5)o4)C(=O)N[C@H]4c5ccccc5OC[C@H]4O)[C@H](C(=O)NCC(F)(F)F)C3)o2)c1 | NL4-3 WT | - | p24 | - | <0.125 µM
O=C(O)P(=O)(O)O | IIIB | - | p24 | - | 9.07 µM
Cc1ccnc2c1NC(=O)c1cccnc1N2C1CC1 | IIIB | - | cytopathic effect / MTT | - | 0.12 µM
Nc1ccn([C@H]2CC[C@@H](CO)O2)c(=O)n1 | IIIB 3TC (RT-M184V) | RT-M184V | p24 | - | 2.5 µM
COC(=O)N[C@@H](Cc1c[nH]c2ccccc12)C(=O)NCCCC[C@@H](CO)N(CC(C)C)S(=O)(=O)c1ccc(N)cc1 | NL4-3 WT | - | cytopathic effect / MTT | - | 0.136 µM
CNc1nc(NC)c2ncn([C@H]3C=C[C@@H](OCP(=O)(O)O)O3)c2n1 | IIIB | - | RT activity | - | >125 µg/mL
Cc1c(O)cccc1C(=O)N[C@@H](CSc1ccccc1)[C@H](O)CN1C[C@H]2CCCC[C@H]2C[C@H]1C(=O)NC(C)(C)C | NL4-3 | SQV-resistant (PR G48V L90M) | cytopathic effect / MTT | - | 0.106 µM
Cc1cn([C@H]2C[C@H](N=[N+]=[N-])[C@@H](CO)O2)c(=O)[nH]c1=O | ADP144 (RT-L74V) | RT-L74V | MTT | - | 0.0001 µg/mL
Nc1nc(NC2CC2)c2ncn([C@H]3C=C[C@@H](CO)C3)c2n1 | NL4-3 | - | p24 / luminescence | - | 1.51 µM
CCc1c(Sc2cc(C)cc(C)c2)n(COCCO)c(=S)[nH]c1=O | IIIB | - | cytopathic effect / MTT | - | 0.0075 µM
CC(C)NC(=O)N1Cc2cc(Cl)ccc2NC(=O)[C@@H]1C | - | - | cytopathic effect / MTT | - | >619 µM
Cc1c(Sc2ccccc2)n(COCCO)c(=O)[nH]c1=O | HE | - | antigen | clinical isolate | 16 µM
CCN1C(=O)N(Cc2cccc(Cl)c2)S(=O)(=O)c2cscc21 | MN | - | syncytia | - | 0.8 µM
CCN[C@H]1CO[C@@H]2OC[C@H](OC(=O)N[C@@H](Cc3cc(F)cc(F)c3)[C@H](O)CN(CC(C)C)S(=O)(=O)c3ccc4nc(NC5CC5)sc4c3)[C@@H]21 | NL4-3 | - | p24 / luminescence | - | 0.0092 µM
CC(C)=CCN1Cc2cc(Cl)ccc2NC(=S)C1C(C)C | - | - | cytopathic effect / MTT | - | 5.1 µM
CC(C)(C)NC(=O)[C@@H]1C[C@@H]2CCCC[C@@H]2CN1C[C@@H](O)[C@H](Cc1ccccc1)NC(=O)[C@H](CC(N)=O)NC(=O)c1ccc2ccccc2n1 | NL4-3 | PR-M46I V82T I84V | p24 | - | <0.05 µM
Cc1cn([C@H]2C[C@H](N=[N+]=[N-])[C@@H](CO)O2)c(=O)[nH]c1=O | - | - | cytopathic effect | - | 0.002 µM
Cc1cn([C@H]2C[C@H](N=[N+]=[N-])[C@@H](CO)O2)c(=O)[nH]c1=O | IIIB | - | RT activity | - | 0.0019 µg/mL
CC(C)(C)NC(=O)[C@@H]1CN(Cc2cccnc2)CCN1C[C@@H](O)C[C@@H](Cc1ccccc1)C(=O)CN1c2ccccc2C[C@H]1O.O=S(=O)(O)O | NL4-3 | - | p24 / luminescence | - | 0.0254 µM
Cc1cn([C@H]2C[C@H](N=[N+]=[N-])[C@@H](CO)O2)c(=O)[nH]c1=O | IIIB | - | p24 | - | 0.007 µM
CC(C)=CCN1Cc2cc(Cl)cc3[nH]c(=S)n(c23)C[C@@H]1C | ADP141 (RT D67N K70N T215F K219Q) | RT-D67N K70N T215F K219Q | MTT | - | 0.001 µg/mL
CCN1C(=O)N(Cc2ccccc2Cl)S(=O)(=O)c2cscc21 | ADP/141 | RT-D67N K70R T215F K219Q | syncytia | - | 5 µM
CC1C(=O)Nc2ccccc2CN1CC1CCC1 | - | - | cytopathic effect / MTT | - | 238 µM
CC(C)(c1ncc(-c2ccc(F)cc2)o1)N1CCN(C[C@@H](O)C[C@@H](Cc2nnc(-c3ccccc3)o2)C(=O)N[C@H]2c3ccccc3OC[C@H]2O)[C@H](C(=O)NCC(F)(F)F)C1 | Q-60 Clinical isolate | PR-L10I N37S R41K M46I I54V I62V L63P A71V V77I V82A L90M I93L | p24 | - | <0.016 µM
CCN[C@H]1CO[C@@H]2OC[C@H](OC(=O)N[C@@H](Cc3ccccc3)[C@H](O)CN(CC(C)C)S(=O)(=O)c3ccc4nc(NC5CC5)sc4c3)[C@@H]21 | NL4-3 | - | MTT / p24 | - | 0.0036 µM
Cc1cn([C@H]2C[C@H](N=[N+]=[N-])[C@@H](CO)O2)c(=O)[nH]c1=O | IIIB | NNRTI-resistant (RT Y188L) | MTT | - | 0.00634 µM
Cc1cn([C@H]2C[C@H](N=[N+]=[N-])[C@@H](CO)O2)c(=O)[nH]c1=O | HE | - | cytopathic effect / MTT | - | 0.003 µM
CC1(C)S[C@H]([C@H](NC(=O)Cc2ccccc2)C(=O)NCc2ccccc2)N[C@H]1C(=O)N[C@H](Cc1ccccc1)[C@H](O)CC(=O)NCc1ccccc1 | RF | - | cytopathic effect | - | 4.7 µM
CC(C)=CCN1Cc2cc(Cl)ccc2NC(=O)[C@@H]1C | - | - | cytopathic effect / MTT | - | 4.6 µM
CCc1c(Sc2cc(C)cc(C)c2)n(COCc2ccccc2)c(=O)[nH]c1=O | IIIB | - | cytopathic effect / MTT | - | 0.0024 µM
CC1NCc2ccccc2NC1=O | - | - | cytopathic effect / MTT | - | >8.5 µM
Cc1cn([C@@H]2C[C@H](CO)CS2)c(=O)[nH]c1=O | - | - | cytopathic effect | - | >100 µM
CC(C)c1nc(CN(C)C(=O)N[C@H](C(=O)N[C@@H](Cc2ccccc2)C[C@H](O)[C@H](Cc2ccccc2)NC(=O)OCc2cncs2)C(C)C)cs1 | NL4-3 | - | p24 | - | <0.05 µM
CC1(C)S[C@H]([C@H](NC(=O)Cc2ccccc2)C(=O)NCc2ccccc2)N[C@H]1C(=O)NCCNC(=O)[C@@H]1N[C@@H]([C@H](NC(=O)Cc2ccccc2)C(=O)NCc2ccccc2)SC1(C)C | RF | - | cytopathic effect | - | 0.29 µM
Cc1cc(C#N)cc(C)c1Oc1nc(NC2CCC(NCc3ccc(Br)cc3)CC2)nc2ccsc12 | IIIB | NNRTI-resistant (RT F227L V106A) | MTT | - | >3.45 µM
CC(C)(c1ncc(-c2ccc(Cl)cc2)o1)N1CCN(C[C@@H](O)C[C@@H](Cc2nnco2)C(=O)N[C@H]2c3ccccc3OC[C@H]2O)[C@H](C(=O)NCC(F)(F)F)C1 | V-18 Clinical isolate | PR-L10I M36I N37D M46I R57K L63P A71V G73S I84V L90M I93L | p24 | - | <0.063 µM
Nc1ccn([C@@H]2CS[C@H](CO)O2)c(=O)n1 | IIIB | - | RT activity | - | 0.51 µg/mL
CC(C)(c1ncc(-c2ccc(F)cc2)o1)N1CCN(C[C@@H](O)C[C@@H](Cc2nnco2)C(=O)N[C@H]2c3ccccc3OC[C@H]2O)[C@H](C(=O)NCC(F)(F)F)C1 | V-18 Clinical isolate | PR-L10I M36I N37D M46I R57K L63P A71V G73S I84V L90M I93L | p24 | - | <0.125 µM
Cc1ccc(-c2c([C@H](CC(C)C)C(=O)O)n(C)c(=O)c3ccccc23)c(C)c1 | - | - | luciferase | - | 11.1 µM
CCOC(=O)C1CN(Cc2ccc(S(N)(=O)=O)cc2)CCC1Nc1nc(Oc2c(C)cc(C#N)cc2C)c2sccc2n1 | IIIB | NNRTI-resistant (RT K103N) | MTT | - | 0.239 µM
CCc1c(Sc2cc(C)cc(C)c2)n(COCc2ccccc2)c(=S)[nH]c1=O | IIIB | - | cytopathic effect / MTT | - | 0.0076 µM
Cc1ccnc2c1NC(=O)c1cccnc1N2C1CC1 | ADP/141 | RT-D67N K70R T215F K219Q | syncytia | - | 0.03 µM
COc1nc(N)c2ncn([C@H]3C=C[C@@H](OCP(=O)(O)O)O3)c2n1 | IIIB | - | RT activity | - | >125 µg/mL
N#C/C=C1/c2cc(S)cc([N+](=O)[O-])c2-c2c1cc(S(=O)(=O)NCc1ccccc1)cc2[N+](=O)[O-] | IIIB | - | p24 / ELISA | - | 54.46 µM
CC(C)=CCN1Cc2cc(Cl)ccc2NC(=O)C1c1ccccc1 | - | - | cytopathic effect / MTT | - | >100 µM
COc1c(O)c(Cl)c2c(c1OC)-c1c(c(Cl)c(O)c(OC)c1OC)C[C@H](C)[C@H](C)C2 | A17 | RT-K103N Y181C | cytopathic effect / MTT | - | >20 µM
Nc1nc2c(ncn2C2CC(CO)CS2)c(=O)[nH]1 | - | - | cytopathic effect | - | >100 µM
CC(C)C1NCc2cc(Cl)ccc2NC1=S | - | - | cytopathic effect / MTT | - | >100 µM
CCCc1nnc(C[C@H](C[C@H](O)CN2CCN(C(C)(C)c3ncc(-c4ccc(Cl)cc4)o3)C[C@H]2C(=O)NCC(F)(F)F)C(=O)N[C@H]2c3ccccc3OC[C@H]2O)o1 | NL4-3 WT | - | p24 | - | <0.008 µM
CCOCn1c(Cc2cc(C)cc(C)c2)c(CC)c(=O)[nH]c1=O | A012D | - | cytopathic effect / MTT | - | 0.0012 µM
O=c1cc2ccccc2c(O)n1O | IIIB | - | MTT | - | >69.13 µM
O=c1[nH]cnc2c1ncn2[C@H]1CC[C@@H](CO)O1 | 13MB1 (TIBO-resistant RT L100I) | RT-L100I | MTT | - | 0.4 µg/mL
Cc1cc(C#N)cc(C)c1Oc1nc(Nc2ccc(C#N)cc2)nc(N)c1Br | IIIB | - | MTT | - | 0.0041 µM
N#CCN1C(=O)N(Cc2ccccc2)S(=O)(=O)c2cscc21 | HE | - | syncytia | - | 4.2 µM
C1CNCCNCCCN(CCCN2CCCNCCNCCCNCC2)CCNC1 | NL43)(JM3100r) | - | cytopathic effect / MTT | - | 96 µg/mL

For reference, 8 entries again:

compound,strain,mutations,method,conditions,value
Cc1cc(C#N)cc(C)c1Oc1nc(NC2CCN(Cc3cccc(C(N)=O)c3)CC2)nc2sccc12,IIIB,NNRTI-resistant (RT K103N),MTT,-,0.00888 µM
CCN1C(=O)N(Cc2ccccc2Cl)S(=O)(=O)c2cscc21,ADP/141,RT-D67N K70R T215F K219Q,syncytia,-,5 µM
CC(C)=CCN1Cc2cc(Cl)ccc2NC(=S)C1C(C)C,-,-,cytopathic effect / MTT,-,5.1 µM
CCc1c(Sc2cc(C)cc(C)c2)n(COCc2ccccc2)c(=S)[nH]c1=O,IIIB,-,cytopathic effect / MTT,-,0.0076 µM
Nc1ccn([C@H]2CC[C@@H](CO)O2)c(=O)n1,HXB2-D184+294 (RT M184V P294S),RT-M184V P294S,RT activity,-,2.6 µM
O=C1N(Cc2ccc(CO)cc2)[C@H](Cc2ccccc2)[C@H](O)[C@@H](O)[C@@H](Cc2ccccc2)N1Cc1ccc(CO)cc1,NL4-3,PR-L63P V82T,p24,-,<0.4 µM
Cc1cn([C@@H]2C[C@H](CO)CS2)c(=O)[nH]c1=O,-,-,cytopathic effect,-,>100 µM
CNc1nc(NC)c2ncn([C@H]3C=C[C@@H](OCP(=O)(O)O)O3)c2n1,IIIB,-,RT activity,-,>125 µg/mL